Record: PubChem BioAssay AID504761 (Drosophila RNAi Screening Center, 2011)

Test: 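Insect host genes that dengue virus relies on to spread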 (primary screen)
Cells: D.Mel-2 cells from Drosophila
Reagent: long dsRNA against Drosophila genes
Conditions: infection with dengue virus type 2; dose and infection time not stated
Measured: 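Per well on two replicate plates, imaging gave the percent of cells positive for viral envelope protein, ranked by infection, and a nuclear count of cells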
Direction: infection score: higher = more virus-infected cells; cell count: higher = more cells in the well
Hit rule: 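Low infection ranks in the two replicates (chance level up to 0.065) followed by a retest with a 1.5-fold or larger significant decrease, p below 0.05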
Meaning of the calls: active = confirmed: knock-down lowers infection; inactive = not picked or not confirmed
The deposit covers about 22,000 reagents; shown is an unselected part of those that have a named target and a result. Over the whole deposit, 116 (0.52%) are marked active. 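Calls depend on retest data that are not deposited; infection was ranked per plate without normalising between plates; the unit of the infection score is not given.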 Raw values vary from plate to plate and are shown uncorrected. Further read-outs or replicates are left out here. The record does not give: the amount of reagent, the time to read-out.

gene knocked down | dsRNA | infection score, replicate 1 | infection score, replicate 2 | cell count, replicate 1 | Call
CG32053 | DRSC10683 | 7.39 | 7.64 | 6685 | inactive
CG4733 | DRSC15634 | – | 8.92 | 265 | inactive
Nipped-A | DRSC04883 | 15.4 | 10.5 | 3972 | inactive
Nipped-A | DRSC04884 | 51.9 | 32.8 | 2595 | inactive
Nipped-A | DRSC07738 | 5.96 | 7.94 | 5166 | inactive
Nipped-A | DRSC22386 | 2.46 | 13.4 | 3776 | inactive
Or74a | DRSC11245 | 1.87 | 0.82 | 6301 | inactive
CG5151 | DRSC23220 | 0.58 | 26.1 | 6061 | inactive
CG5151 | DRSC29097 | 8.55 | 6.11 | 5767 | inactive
Ugt302E1 | DRSC15635 | 4.33 | 28.9 | 6427 | inactive
Ugt302E1 | DRSC29326 | 15.2 | – | 3314 | inactive
Cpr49Ae | DRSC07201 | 7.48 | 12.3 | 6033 | inactive
Cpr49Ae | DRSC27662 | – | – | 429 | inactive
CG14395 | DRSC14852 | 4.11 | 5.47 | 5481 | inactive
CG15701 | DRSC06572 | 17.8 | 12.8 | 5199 | inactive

Entries above whose target name begins with N or n (4):
gene knocked down | dsRNA | infection score, replicate 1 | infection score, replicate 2 | cell count, replicate 1 | Call
Nipped-A | DRSC04883 | 15.4 | 10.5 | 3972 | inactive
Nipped-A | DRSC04884 | 51.9 | 32.8 | 2595 | inactive
Nipped-A | DRSC07738 | 5.96 | 7.94 | 5166 | inactive
Nipped-A | DRSC22386 | 2.46 | 13.4 | 3776 | inactive

Additional entries:
gene knocked down | dsRNA | infection score, replicate 1 | infection score, replicate 2 | cell count, replicate 1 | Call
Tbcb | DRSC06067 | 8.94 | – | 1801 | inactive
djl | DRSC12578 | 4.24 | 25.9 | 6340 | inactive
djl | DRSC25609 | 13.6 | 7.59 | 4410 | inactive
CG13527 | DRSC04169 | 12.2 | 21.6 | 2572 | inactive
Spt3 | DRSC15465 | 4.83 | 9.86 | 6189 | inactive
Spt3 | DRSC25502 | 2.4 | 1.36 | 6672 | inactive
CG8507 | DRSC16435 | 7.1 | 7.23 | 6356 | inactive
CG31496 | DRSC12547 | 4.18 | 7.24 | 6657 | inactive
CG31496 | DRSC27899 | 11 | 4 | 6532 | inactive
